# Data: patent publication US12635689B2, “Antifungal compositions” (priority 2019, dated 2026)
# Key:
# M. oryzae germlings = experiment: Conidia germination and appressorium formation on glass slides; details: for germination and appressorium formation of M. oryzae germlings: 3 h on glass slides
# [1] = tested on: Magnaporthe oryzae mitochondria; experiment: Mitochondrial potential; details: M. oryzae
Substance,germination and appressorium formation of M. oryzae germlings (M. oryzae germlings),mitochondrial potential [1],relative effectiveness in inhibiting germination and appressoria (M. oryzae germlings)
dodecylguanidinium,suppress germination and abolish appressorium formation,depolarisation of the mitochondria,–
dodecyltriphenylphosphonium,–,reduce the mitochondrial potential,–
octadecyldimethylsulfonium,suppress germination and abolish appressorium formation,–,–
octadecyltrimethylammonium,suppress germination and abolish appressorium formation,–,slightly more effective than C18-DMS+
